Assay results reported in patent publication US20260250362A1 (published 2026).

B1: ADI-42898 chimera HC^WT:LC^IGL with SHM Y49S (antibody, V domains shown)
VH: QVQLVESGGGVVQPGRSLRLSCAASGFTFSSYAMHWVRQAPGKGLEWVAVTWFDVSKKDYADSVKGRFTISRDNSKNTLYLQMNSLRAEDTAVYYCARNLIRYSGSYFPVHGMDVWGQGTTVTVSS
VL: not shown
B2: ADI-42898 chimera HC^WT:LC^IGL (antibody, V domains shown)
VH: B1 VH
VL: not shown

Tests used:
unnamed [1] = target: T1, unnamed (UniProt Q9E006 19-651; Q9E006 652-1138); assay: ELISA; heatmap bin
T1 Gn: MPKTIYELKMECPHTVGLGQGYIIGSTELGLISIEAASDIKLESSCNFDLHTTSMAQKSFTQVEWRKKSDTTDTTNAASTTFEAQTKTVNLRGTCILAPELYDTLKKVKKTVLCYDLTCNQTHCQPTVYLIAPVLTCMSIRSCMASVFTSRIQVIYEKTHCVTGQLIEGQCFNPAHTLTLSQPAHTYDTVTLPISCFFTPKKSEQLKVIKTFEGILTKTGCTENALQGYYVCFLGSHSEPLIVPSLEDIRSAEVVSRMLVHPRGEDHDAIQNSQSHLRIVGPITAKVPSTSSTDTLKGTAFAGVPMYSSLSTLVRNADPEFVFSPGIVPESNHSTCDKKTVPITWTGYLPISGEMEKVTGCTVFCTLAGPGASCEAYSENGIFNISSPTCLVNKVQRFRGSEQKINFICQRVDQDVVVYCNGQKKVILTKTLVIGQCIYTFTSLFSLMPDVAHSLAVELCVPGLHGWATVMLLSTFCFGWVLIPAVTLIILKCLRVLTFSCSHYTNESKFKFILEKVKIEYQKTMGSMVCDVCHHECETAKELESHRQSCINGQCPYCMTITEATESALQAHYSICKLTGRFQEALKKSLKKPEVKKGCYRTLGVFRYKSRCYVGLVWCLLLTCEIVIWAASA
T1 Gc: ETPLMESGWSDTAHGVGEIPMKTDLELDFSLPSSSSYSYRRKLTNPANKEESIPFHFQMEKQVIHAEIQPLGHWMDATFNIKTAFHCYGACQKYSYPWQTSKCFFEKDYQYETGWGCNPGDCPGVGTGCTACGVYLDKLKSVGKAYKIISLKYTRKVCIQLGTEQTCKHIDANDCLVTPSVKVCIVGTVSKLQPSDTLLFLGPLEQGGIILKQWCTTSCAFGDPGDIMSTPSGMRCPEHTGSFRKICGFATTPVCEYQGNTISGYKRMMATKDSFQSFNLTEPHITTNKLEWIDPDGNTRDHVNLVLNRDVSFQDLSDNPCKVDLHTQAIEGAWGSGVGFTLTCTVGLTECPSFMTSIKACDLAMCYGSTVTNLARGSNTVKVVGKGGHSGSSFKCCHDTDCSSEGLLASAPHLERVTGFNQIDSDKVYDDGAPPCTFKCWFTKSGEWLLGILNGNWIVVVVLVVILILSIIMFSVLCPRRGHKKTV

unnamed [2] = target: T2, unnamed; assay: ELISA; heatmap bin
T2 chain 1: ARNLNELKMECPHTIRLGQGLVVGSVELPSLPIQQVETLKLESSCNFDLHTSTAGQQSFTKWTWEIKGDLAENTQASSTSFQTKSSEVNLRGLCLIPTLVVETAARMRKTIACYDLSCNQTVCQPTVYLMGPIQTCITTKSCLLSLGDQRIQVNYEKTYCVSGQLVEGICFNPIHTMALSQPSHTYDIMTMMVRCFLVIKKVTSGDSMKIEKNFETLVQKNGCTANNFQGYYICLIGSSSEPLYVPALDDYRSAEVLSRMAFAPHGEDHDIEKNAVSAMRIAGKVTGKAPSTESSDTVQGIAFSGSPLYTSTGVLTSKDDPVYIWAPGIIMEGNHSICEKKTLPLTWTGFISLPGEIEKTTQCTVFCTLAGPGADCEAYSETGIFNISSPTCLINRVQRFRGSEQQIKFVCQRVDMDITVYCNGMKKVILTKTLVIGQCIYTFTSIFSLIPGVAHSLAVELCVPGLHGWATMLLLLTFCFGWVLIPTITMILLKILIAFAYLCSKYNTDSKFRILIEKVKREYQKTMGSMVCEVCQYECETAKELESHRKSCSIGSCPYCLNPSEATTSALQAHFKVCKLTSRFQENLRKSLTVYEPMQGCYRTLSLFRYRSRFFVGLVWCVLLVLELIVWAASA
T2 chain 2: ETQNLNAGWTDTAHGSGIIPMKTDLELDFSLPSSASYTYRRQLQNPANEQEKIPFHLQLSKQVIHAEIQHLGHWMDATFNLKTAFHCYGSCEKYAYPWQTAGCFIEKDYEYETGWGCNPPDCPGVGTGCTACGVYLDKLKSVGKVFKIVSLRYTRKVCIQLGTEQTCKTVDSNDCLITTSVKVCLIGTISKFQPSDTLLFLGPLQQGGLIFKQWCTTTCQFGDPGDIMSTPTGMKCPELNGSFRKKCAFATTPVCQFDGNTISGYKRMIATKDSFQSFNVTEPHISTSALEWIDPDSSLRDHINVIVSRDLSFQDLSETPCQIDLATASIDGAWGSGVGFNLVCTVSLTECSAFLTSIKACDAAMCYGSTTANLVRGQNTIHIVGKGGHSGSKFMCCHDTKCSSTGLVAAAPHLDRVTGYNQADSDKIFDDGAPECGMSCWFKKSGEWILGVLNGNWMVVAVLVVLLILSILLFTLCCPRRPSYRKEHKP

| Binder | EC50 (unnamed [1]) [nM] | EC50 (unnamed [2]) [nM] |
| --- | --- | --- |
| B1 | > 10 | – |
| B2 | – | > 10 |
